Molecular target: VcCA (α-class carbonic anhydrase from Vibrio cholerae) (Vibrio cholerae, UniProt Q9KMP6)
Assay: stopped-flow CO2 hydration assay, Cheng-Prusoff
Format: biochemical
Conditions: read-out: KI * (nM) / VcCA; CO2 substrate, pH 7.4, 10 mM Hepes, 0.1 M NaClO4, 25 °C, 15 min pre-incubation

Compound	Ki [nM]
CCC(CC)=NNC(=O)c1[nH]c2ccc(S(N)(=O)=O)cc2c1-c1ccccc1	860
CCC(C)=NNC(=O)c1[nH]c2ccc(S(N)(=O)=O)cc2c1-c1ccccc1	231
